Data taken from patent US20240218055A1.
Read-outs that look alike come from different tables or passages of the source.

Key:
[1] = biological target: stabilized soluble LASV GPC trimer (Lassa virus)
[2] = biological target: stabilized soluble LASV GPC trimer (Lassa virus); remark: listed apart in the source

10.4B
Kd [1]: 66.3 nM
Kd [2]: 66.3 nM
koff [2]: 0.00357 s⁻¹
kon [2]: 53800 M⁻¹ s⁻¹
